Pooled drug test results. Numbers come from NIAID ChemDB, via PubChem.

Common to all: growth or infection tests; agent: Mycobacterium tuberculosis

ECn: concentration that inhibits the pathogen or its effect by n%.

SMILES | strain | cells | read by | endpoint | tested at | value
CCCCCCCCCCCNCCNC[C@@H](C)O |  |  |  | MIC |  | 50 µM
CN[C@@H]1[C@H](O[C@H]2[C@H](O[C@H]3[C@H](O)[C@@H](O)[C@H](N=C(N)N)[C@@H](O)[C@@H]3N=C(N)N)O[C@@H](C)[C@]2(O)C=O)O[C@@H](CO)[C@H](O)[C@H]1O | TN3605 (W1) |  |  | MIC |  | >2 µg/mL
O=[N+]([O-])c1ccc(OCC(O)COc2ccc([N+](=O)[O-])cc2)cc1 | H37Rv |  |  | MIC |  | 100 µg/mL
CCOC(=O)Nc1cc(N[C@@H](C)[C@H](O)c2ccccc2)c([N+](=O)[O-])c(N)n1 | H37Rv |  |  | inhibition | 12.5 µg/mL | 0%
O=C(O)/C=C/c1ccc([N+](=O)[O-])o1 | H37Rv |  |  | MIC |  | >100 µg/mL
COc1ccc(-c2oc3cc(OC)cc(OC)c3c(=O)c2-c2c(-c3ccc(OC)cc3)oc3cc(OC)cc(OC)c3c2=O)cc1 | H37Rv |  |  | EC50 |  | >12.5 µg/mL
CCOC(=O)Nc1cc2ncc(-c3ccccc3)nc2c(NC(C)=O)n1 | H37Rv |  |  | EC50 |  | >12.5 µg/mL
CCCCCCCCCCNC(=O)c1cccnc1 | H37Rv |  |  | MIC |  | >100 µg/mL
CCOC(=O)c1cc(=O)c2cc(-c3ccccc3)ccc2[nH]1 | H37Rv |  | BACTEC | inhibition | 12.5 µg/mL | 64%
CCCCCCCCCCCc1nc2ccccc2[nH]1 | H37Rv |  |  | MIC |  | >100 µg/mL
COc1cccc2oc([N+](=O)[O-])cc12 | H37Rv | VERO |  | MIC |  | 3.13 µg/mL
CC(C)c1ccc2c(c1)CC[C@H]1[C@](C)(CNCCNCCO)CCC[C@]21C |  |  |  | MIC |  | 25 µM
Oc1ccc(CCNCCN[C@@H](c2ccccc2)[C@H](O)c2ccccc2)cc1O |  |  |  | MIC |  | 50 µM
COc1cc(OC)c2c(c1)OC(c1ccc(O)cc1)CC2=O | H37Rv |  |  | EC50 |  | >12.5 µg/mL
CC[C@@H](CO)NCCN[C@@H](CC)CO | MDR20 |  | broth dilution / resazurin | MIC |  | 32 µg/mL
OC[C@H](Cc1ccc(Cl)cc1)NCCNCCc1ccc(Cl)cc1Cl |  |  |  | MIC |  | 25 µM
COc1ccc(N2C(=O)C(=O)N(c3ccccc3[N+](=O)[O-])C2=S)cc1 | H37Rv |  | BACTEC | inhibition | 12.5 µg/mL | 3%
O=C(O)c1ccnc(C(=O)O)c1 | H37Rv |  |  | MIC |  | 100 µg/mL
OCCCCCNCCNCC12CC3CC(CC(C3)C1)C2 |  |  |  | MIC |  | 50 µM
O=c1ccccn1Cc1ccccc1 | H37Rv |  |  | MIC |  | >100 µg/mL
Cc1cc(N/N=C/c2ccccn2)nc2ccccc12 | H37Rv |  | BACTEC | inhibition | 12.5 µg/mL | 99%
CO[C@H]1/C=C/O[C@@]2(C)Oc3c(C)c(O)c4c(O)c(c(/C=N/N5CCN(C/C=C/c6ccccc6)CC5)c(O)c4c3C2=O)NC(=O)/C(C)=C\C=C\[C@H](C)[C@H](O)[C@@H](C)[C@@H](O)[C@@H](C)[C@H](OC(C)=O)[C@@H]1C | 31 (rifampin-resistant) |  |  | MIC |  | 0.2 µg/mL
CC(CNCCC(c1ccccc1)c1ccccc1)NC1CCCC(C)C1C |  |  |  | MIC |  | 50 µM
CCOC(=O)Nc1cc2c([nH]c(=S)n2/N=C/c2ccc3c(c2)OCO3)c(N)n1 | H37Rv |  |  | EC50 |  | >12.5 µg/mL
CC(NCCNCc1ccccc1Sc1ccccc1CO)C12CC3CC(CC(C3)C1)C2 |  |  |  | MIC |  | 50 µM
O=c1cc(-c2ccc(Oc3c(O)cc4oc(-c5ccc(O)cc5)cc(=O)c4c3O)cc2)oc2cc(O)cc(O)c12 |  |  |  | EC50 |  | >12.5 µg/mL
CC(CNC[C@@H]1CC[C@H]2C[C@@H]1C2(C)C)NC1CCCCCCC1 |  |  |  | MIC |  | 25 µM
CCCCCCCC/C=C\CCCCCCCCOCC(O)CO | H37Rv |  | BACTEC | inhibition | 128 µg/mL | 90%
COc1ccc(/C=C/C(=O)c2cc(Br)ccc2O)cc1 | H37Rv |  |  | EC50 |  | >12.5 µg/mL
CC1=NN(C(=O)c2ccncc2)C(=O)C1N=Nc1ccc(S(=O)(=O)Nc2ccccn2)cc1 | H37Rv |  | BACTEC | inhibition | 12.8 µg/mL | 0%
COc1ccc2c(=O)c(-c3c(-c4ccccc4)oc4cc(OC)ccc4c3=O)c(-c3ccccc3)oc2c1 |  |  |  | inhibition | 12.5 µg/mL | 0%
COC(=O)Nc1cc(NC(O)/C(=C/O)c2ccccc2)c([N+](=O)[O-])c(N)n1 | H37Rv |  |  | inhibition | 12.5 µg/mL | 4%
CC1CN(c2cc3c(cc2F)c(=O)c(C(=O)O)cn3-c2ccc(F)cc2F)CCN1 | ATCC35838 |  |  | MIC |  | 0.5 µg/mL
CCC1=CC(CC)C2C(=O)NC1C2C(=O)O | H37Rv |  |  | MIC |  | >100 µg/mL
CCOCCCNCCNCCC(c1ccccc1)c1ccccc1 |  |  |  | MIC |  | 25 µM
NC(=O)c1csc(NC2OC(CO)C(O)C(O)C2O)n1 | H37Rv |  | BACTEC | MIC bound |  | >12.5 µg/mL
C[C@H]1C[C@H](N)CN1c1cc2c(cc1F)c(=O)c(C(=O)O)cn2-c1ccc(F)cc1F | ATCC35838 |  |  | MBC |  | 4 µg/mL
CCCCCCCCCC(=O)OCCN1CCN(CCCN2c3ccccc3Sc3ccc(C(F)(F)F)cc32)CC1 | H37Rv |  | BACTEC | MIC bound |  | ≤12.5 µg/mL
CC(=N)N.Cl | H37Rv |  |  | MIC |  | >100 µg/mL
O=S1(=O)c2cccc(c2)NC(=S)/C([n+]2ccccc2)=C(/[O-])c2ccc(cc2)CC2CCCCN21 | H37Rv |  | BACTEC | inhibition | 12.5 µg/mL | -19%
CCOC(=O)Nc1cc(NC(C)C(=O)Cc2ccccc2)c([N+](=O)[O-])c(N)n1 | H37Rv |  |  | EC50 |  | >12.5 µg/mL
CCOc1ccc2ccc3ccc(OCC)nc3c2n1 | H37Rv |  |  | inhibition | 6.25 µg/mL | 10%
O=C(O)C(CCCOc1ccccc1)C(=O)O | H37Rv |  |  | MIC |  | 100 µg/mL
CCOC(=O)Nc1cc2nncnc2c(NC(=O)OCC)n1 | H37Rv |  |  | inhibition | 12.5 µg/mL | 0%
Cc1ccc(NC(=O)c2ccccc2)cc1Cl | H37Rv |  | BACTEC | MIC bound |  | ≤12.5 µg/mL
O=C(O)C(F)F | H37Rv |  |  | MIC |  | >100 µg/mL
Nc1ncnc2c1ncn2C1OC(C(=O)NCC(=O)O)C(O)C1O | H37Rv |  | BACTEC | inhibition | 12.5 µg/mL | 13%
O=C(O)CCCCCCCC(O)C(O)CCCCCCO | H37Rv |  |  | MIC |  | >100 µg/mL
O=C1CC(c2ccc(O)cc2)Oc2ccccc21 |  |  |  | EC50 |  | >12.5 µg/mL
CC(Cc1ccc(Cl)cc1)NCCNC[C@]1(C)CCC[C@]2(C)c3ccc(C(C)C)cc3CC[C@@H]12 |  |  |  | MIC |  | 50 µM
NC1CCN(c2nc3c(cc2F)c(=O)c(C(=O)O)cn3-c2ccc(F)cc2F)C1 | ATCC 35820 |  |  | MIC |  | 4 µg/mL
CNc1ccc(C(=O)O)cc1 | H37Rv |  |  | MIC |  | 50 µg/mL
OC1(c2cccc(Cl)c2)C2=NCCCN2c2ccccc21 | H37Rv |  | resazurin | inhibition | 6.25 µg/mL | 33%
S=c1nn[nH]n1-c1cc(Cl)ccc1Cl | H37Rv |  |  | MIC |  | >100 µg/mL
CC(C)c1ccc2c(c1)CC[C@H]1[C@](C)(CNCCNC3CCCC3)CCC[C@]21C |  |  |  | MIC |  | 25 µM
CCCCC(CC)CN1CN(CC(CC)CCCC)CC(C)(NCCNC(C)C)C1 |  |  |  | MIC |  | 25 µM
COc1cccc(C(=O)O)c1-c1c(OC)cccc1C(=O)O | H37Rv |  |  | MIC |  | 100 µg/mL
CSC(=S)N/N=C/c1ccccc1O | H37Rv |  | BACTEC | MIC bound |  | ≤128 µg/mL
O=C1C(=O)C(=O)C(=O)C(=O)C1=O | H37Rv |  |  | MIC |  | >100 µg/mL
CC1CCCCC1NCCNCCC(c1ccccc1)c1ccccc1 |  |  |  | MIC |  | 6.25 µM
O=C(Cc1ccccc1)c1ccccc1 | H37Rv |  |  | MIC |  | 100 µg/mL
COc1cccc2c1C(=O)c1c(O)c3c(c(O)c1C2=O)C[C@@](O)(/C(C)=N/NC(N)=O)CC3OC1CC(N)C(O)C(C)O1.Cl | INH-r |  |  | MIC |  | 12.5 µg/mL
CC(=O)Nc1ccc(S(=O)(=O)C(CC(=O)c2ccccc2)c2ccccc2)cc1 | H37Rv |  |  | MIC |  | 100 µg/mL
CC1(C)[C@H]2CC[C@@H](CNCCNCCN3CCOCC3)[C@@H]1C2 |  |  |  | MIC |  | 50 µM
COc1ccc(-n2c(C)c(COC(=O)NC(C)C)c(COC(=O)NC(C)C)c2C)cc1 | H37Rv |  | BACTEC | MIC bound |  | >6.25 µg/mL
CC[C@H]1OC(=O)[C@H](C)[C@@H](O[C@H]2C[C@@](C)(OC)[C@@H](O)[C@H](C)O2)[C@H](C)[C@@H](O[C@@H]2O[C@H](C)C[C@H](N(C)C)[C@H]2O)[C@](C)(O)C[C@@H](C)CN(C)[C@H](C)[C@@H](O)[C@]1(C)O | ATCC 35830 |  |  | MIC |  | >8 µg/mL
CC(C)=CCCC(=O)C(c1nc2nnc(N)n2[nH]c1=O)c1nc2nnc(N)n2[nH]c1=O | H37Rv |  | BACTEC | inhibition | 12.5 µg/mL | 0%
Cc1ccc(-c2ccccn2)cc1[N+](=O)[O-] | H37Rv |  |  | MIC |  | >100 µg/mL
C/C(=N/N=C(N)N)c1ccc(N2CCN(c3ccc(/C(C)=N/N=C(N)N)cc3)CC2)cc1 | H37Rv |  | BACTEC | MIC bound |  | >12.5 µg/mL
O=C(NCCCCC(O)C(=O)[O-])c1ccccc1.O=C(NCCCCC(O)C(=O)[O-])c1ccccc1.[Ca+2] | H37Rv |  |  | MIC |  | >100 µg/mL
Nc1cccc2c1[nH]c(=O)c1ccccc12 | H37Rv |  | BACTEC | inhibition | 12.5 µg/mL | 94%
c1ccc(OCCCCOc2ccccc2)cc1 | H37Rv |  |  | MIC |  | >100 µg/mL
Cc1ccc(NC(Nc2ccc(C)c(Cl)c2)C(Cl)(Cl)Cl)cc1Cl | H37Rv |  | BACTEC | inhibition | 12.5 µg/mL | 26%
CCCCCCCCCCCNCCNC[C@@H]1CC[C@H]2C[C@@H]1C2(C)C |  |  |  | MIC |  | 25 µM

Repeating the first 4 entries:

SMILES	strain	cells	read by	endpoint	tested at	value
CCCCCCCCCCCNCCNC[C@@H](C)O				MIC		50 µM
CN[C@@H]1[C@H](O[C@H]2[C@H](O[C@H]3[C@H](O)[C@@H](O)[C@H](N=C(N)N)[C@@H](O)[C@@H]3N=C(N)N)O[C@@H](C)[C@]2(O)C=O)O[C@@H](CO)[C@H](O)[C@H]1O	TN3605 (W1)			MIC		>2 µg/mL
O=[N+]([O-])c1ccc(OCC(O)COc2ccc([N+](=O)[O-])cc2)cc1	H37Rv			MIC		100 µg/mL
CCOC(=O)Nc1cc(N[C@@H](C)[C@H](O)c2ccccc2)c([N+](=O)[O-])c(N)n1	H37Rv			inhibition	12.5 µg/mL	0%

Percent inhibition refers to the dose given; in toxicity tests it is the harm to the cells. Blank or dashed fields: not listed here. MIC bound comes from a single tested concentration. Conditions beyond the fields shown may differ between rows.